Results reported in ChEMBL document CHEMBL1153435, “Harnessing nature's insight: design of aspartyl protease inhibitors from treatment of drug-resistant HIV to Alzheimer's disease” (J Med Chem, 2009).

Target: Protease (Human immunodeficiency virus 1, UniProt Q9YQ12)
Experiment: Inhibition of HIV1 protease

Ki: 1.4 nM
SMILES: CC(C)(C)NC(=O)[C@@H]1C[C@@H]2CCCC[C@@H]2CN1C[C@@H](O)[C@H](Cc1ccccc1)NC(=O)[C@H](CC(N)=O)NC(=O)c1ccc2ccccc2n1
